Results of unrelated studies side by side (data: NIAID ChemDB).

Common to all: growth or infection tests; organism: Cryptococcus neoformans

MIC50, MIC90 and the like: level of inhibition, or share of isolates inhibited.

structure | strain or isolate | measure | method | value
O=C1S/C(=C\c2ccncc2)C(=O)N1CC(O)(Cn1nccn1)c1ccc(F)cc1F | - | MIC80 | - | >100 µg/mL
N=C(N)c1ccc(OC/C=C/COc2ccc(C(=N)N)cc2)cc1 | ATCC 32264 | MIC | - | 3.12 µg/mL
CC(C)=CCC/C(C)=C/Cc1c(O)cc(O)c(C(=O)c2ccccc2)c1O | - | MIC | - | 3.13 µg/mL
Cc1cc(NC(=O)c2ccccc2NC(=O)COc2ccccc2C)no1 | ATCC90112 | MIC | - | >100 µg/mL
O=C1S/C(=C\c2ccc(Cl)cc2)C(=O)N1CC(O)(Cn1nccn1)c1ccc(F)cc1F | - | MIC80 | - | 67.1 µg/mL
C[C@@H](n1cc2cc(F)ccc2n1)[C@](O)(Cn1cncn1)c1ccc(F)cc1F | ATCC 24065 | MIC80 | - | 0.063 µg/mL
C=C1CC[C@@H]2C[C@H]1C2(C)C | - | MIC | agar diffusion / agar | 234 µg/mL
C[C@@H](n1ncc2ccc([N+](=O)[O-])cc21)[C@](O)(Cn1cncn1)c1ccc(F)cc1F | ATCC 24065 | MIC80 | - | 0.25 µg/mL
O=C1S/C(=C\c2ccc(F)cc2)C(=O)N1CC(O)(Cn1nccn1)c1ccc(F)cc1F | - | MIC80 | - | 4.34 µg/mL
COc1cc2c(c(O)c1C)C(=O)c1cc3c(c(O)c1C2=O)-c1c(cc(C)c(C(=O)NC(C)C(=O)O)c1OC)[C@H](OC1OC(C)C(N(C)C)C(OC2OCC(O)C(O)C2O)C1O)[C@H]3O | IAM 4514 | MIC | - | >100 µg/mL
CC(=O)NC1=NN(C(C)=O)C2(CC(c3ccc(C)cc3)N(C(C)=O)C(c3ccc(C)cc3)C2C)S1 | - | MIC | - | >100 µg/mL
COc1cc2c(c(O)c1C[N+](C)(C)C)C(=O)c1cc3c(c(O)c1C2=O)-c1c(O)c(C(=O)N[C@H](C)C(=O)O)c(C)c(N)c1[C@H](O[C@@H]1O[C@H](C)[C@H](N(C)C)[C@H](O[C@@H]2OC[C@@H](O)[C@H](O)[C@H]2O)[C@H]1O)[C@H]3O | IAM 4514 | MIC | - | >100 µg/mL
CC1=CC[C@@H]2C[C@H]1C2(C)C | - | MIC | agar diffusion / agar | >20000 µg/mL
CN1CCN(c2n[nH]c(N3C(=O)CS[C@@H]3c3ccc4c(c3)OCO4)n2)CC1 | H99 | MIC | broth dilution | 1.56 µg/mL
CN[C@@H]1[C@H](O[C@@H]2OC[C@@H](O)[C@H](O)[C@H]2O)[C@@H](O)[C@H](O[C@H]2c3cc(C)c(C(=O)NCC(=O)O)c(O)c3-c3c(cc4c(c3O)C(=O)c3cc(OC)cc(O)c3C4=O)[C@@H]2O)O[C@@H]1CO | IAM 4514 | MIC | - | 0.8 µg/mL
Cn1nc(Cc2ccc(Cl)cc2)c2ccccc2c1=O | Clinical isolate (IM 972751) | MIC80 | broth dilution | 62.5 µg/mL
C[C@@H](n1cc2cc(Cl)ccc2n1)[C@](O)(Cn1cncn1)c1ccc(F)cc1F | ATCC 24065 | MIC80 | - | 0.015 µg/mL
C=CC[C@@H]1/C=C(/C)C[C@H](C)C[C@H](OC)[C@H]2O[C@@](O)(C(=O)C(=O)N3CCCC[C@H]3C(=O)O[C@H](/C(C)=C/[C@@H]3CC[C@@H](O)[C@H](OC)C3)[C@H](C)[C@@H](O)CC1=O)[C@H](C)C[C@@H]2OC | C21F2 | MIC | - | 50 µg/mL
CC(=O)NC1=NN(C(C)=O)C2(CC(c3ccc(C)cc3)N(C(C)=O)C(c3ccc(C)cc3)C2)S1 | - | MIC | - | >100 µg/mL
CNC1C(C)OC(O[C@H]2c3cc(C)c(C(=O)NC(C)C(=O)O)c(OC)c3-c3c(cc4c(c3O)Cc3cc(OC)cc(O)c3C4=O)[C@@H]2O)C(O)C1OC1OCC(O)C(O)C1O | IAM 4514 | MIC | - | >100 µg/mL
O=c1c2cccc(O)c2oc2cccc(O)c12 | - | MIC | - | >25 µg/mL
C[C@H]1[C@H](O)[C@@H](C)/C=C/C=C/C=C/C=C/C=C/C=C/C=C/[C@H](O[C@@H]2O[C@H](C)[C@@H](O)[C@H](N)[C@@H]2O)C[C@@H]2O[C@](O)(C[C@@H](O)C[C@@H](O)CC[C@H](O)[C@@H](O)C[C@@H](O)CC(=O)O[C@H]1C)C[C@H](O)[C@H]2C(=O)O | 12 strains | MIC50 | - | 1 µg/mL
C[C@@H](n1cc2c([N+](=O)[O-])cccc2n1)[C@](O)(Cn1cncn1)c1ccc(F)cc1F | ATCC 24065 | MIC80 | - | 0.063 µg/mL
CCC(C)CC(C)CCCCCCCCC(=O)N[C@H]1C[C@@H](O)[C@H](NCCN)NC(=O)[C@@H]2[C@@H](O)CCN2C(=O)[C@H]([C@H](O)CCN)NC(=O)[C@H]([C@H](O)[C@@H](O)c2ccc(O)cc2)NC(=O)[C@@H]2C[C@@H](O)CN2C(=O)[C@H]([C@@H](C)O)NC1=O | B 29739 | MIC | broth dilution | 32 µg/mL
CCN1CCC(O)(/C=C/c2ccc(Cl)cc2)C(C(=O)/C=C/c2ccc(Cl)cc2)C1 | 15 strains | MIC90 | - | 1 µg/mL
Cc1ccc(OCC(=O)Nc2cccc(C(=O)Nc3cc(C)on3)c2)cc1 | ATCC90112 | MIC | - | >100 µg/mL
CC(N(C)C)C(O)(Cn1cncn1)c1ccc(F)cc1F | KC-201 | MIC | - | 6.25 µg/mL
Cn1cccc1/C=C1\SC(=O)N(CC(O)(Cn2nccn2)c2ccc(F)cc2F)C1=O | - | MIC80 | - | 4.49 µg/mL
Cc1cc(NC(=O)c2cccc(NC(=O)COc3cccc(Cl)c3Cl)c2)no1 | ATCC90112 | MIC | - | >100 µg/mL
Cc1nn([C@H](C)[C@](O)(Cn2cncn2)c2ccc(F)cc2F)c2ccc(Cl)cc12 | ATCC 24065 | MIC80 | - | 0.25 µg/mL
CN[C@@H]1[C@H](O[C@@H]2OC[C@@H](O)[C@H](O)[C@H]2O)[C@@H](O)[C@H](O[C@H]2c3c(Br)c(C)c(C(=O)N[C@H](C)C(=O)O)c(O)c3-c3c(cc4c(c3O)C(=O)c3cc(OC)cc(O)c3C4=O)[C@@H]2O)O[C@@H]1C | IAM 4514 | MIC | - | >100 µg/mL
CC(C)=CCc1ccc(O)c2oc3cc(O)cc(O)c3c(=O)c12 | - | MIC | - | >25 µg/mL
Cc1cc(O)c2c(c1)C(c1ccc3cc4c(c(O)c3c1O)C(=O)CC(C)(O)C4)c1cccc(O)c1C2=O | - | MIC | - | 4 µg/mL
N=C(N)c1ccc(OC/C=C\COc2ccc(C(=N)N)cc2)cc1 | ATCC 32264 | MIC | - | 3.12 µg/mL
COc1cc(OC)c2c(O)c3c(c(-c4ccc5cc6c(c(O)c5c4O)C(=O)CC(C)(O)C6)c2c1)CC(C)OC3C | - | MIC | - | 2 µg/mL
Cc1cc(NC(=O)c2cccc(NC(=O)COc3ccc(Cl)cc3Cl)c2)no1 | ATCC90112 | MIC | - | >100 µg/mL
C=C(C)C(O)Cc1c(O)ccc(C(=O)/C=C/c2ccc(O)cc2)c1O | - | MIC50 | - | 7 µg/mL
Cc1cc(NC(=O)c2cccc(NC(=O)COc3ccccc3C)c2)no1 | ATCC90112 | MIC | - | >100 µg/mL
C[C@@H](c1ncncc1F)[C@](O)(Cn1cncn1)c1ccc(F)cc1F | H99 | MIC | - | 0.03 µg/mL
C/C(=C\C(=O)CCCCCCCCC(=O)O)C[C@@H]1OC[C@H](C[C@H]2O[C@H]2[C@@H](C)[C@H](C)O)[C@@H](O)[C@H]1O | - | MIC | - | >128 µg/mL
COc1cc(C2=NCCN2)ccc1OC/C=C\COc1ccc(C2=NCCN2)cc1OC | ATCC 32264 | MIC | - | 12.5 µg/mL
Cc1cc(NC(=O)c2ccccc2NC(=O)COc2ccc(Cl)cc2)no1 | ATCC90112 | MIC | - | >100 µg/mL

The last 2 rows once more:

structure	strain or isolate	measure	method	value
COc1cc(C2=NCCN2)ccc1OC/C=C\COc1ccc(C2=NCCN2)cc1OC	ATCC 32264	MIC	-	12.5 µg/mL
Cc1cc(NC(=O)c2ccccc2NC(=O)COc2ccc(Cl)cc2)no1	ATCC90112	MIC	-	>100 µg/mL

Neighbouring rows are from separate reports. An empty or dashed field is not shown.